The entries are a selection whose mix differs from that of the whole data set. The source made the active and inactive calls. Cut-off read from the data, not from the text of the source: active = inhibition above about 40%; inactive = the rest.
Test: antibacterial activity on E. coli BW25113 – strain BW25113 wild type, absorbance readout, primary screen (AID 552);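 note: bacteria exposed to compound for 20 hours at 37 °C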
Conditions: E. coli BW25113 growth inhibition, OD600; at 10 µM; active compounds read high
Method in brief: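 assay system = bacterial strain in a whole-cell growth screen | quantity = inoculum from a 1:1000 dilution of a 1.5 h subculture | buffer or medium = LB broth with 50 µg/mL kanamycin | compound dosing = one dose, 10 µM final | schedule = compound exposure of 20 h at 37 °C | technique = absorbance at 615 nm as a measure of bacterial growth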

SMILES | inhibition
O=C(OC1CN2CCC1CC2)C1c2ccccc2Oc2ccccc21 (configuration not stated) | inactive: -10.2%
Fc1ccccc1NC1CCN(Cc2ccccc2)CC1 | inactive: 3.06%
